Reference: the supplement of paper PMC3578754
Fold change is the IC50 on the isolate divided by the IC50 on a reference virus; 1 = unchanged, higher = more resistant. Changes are given against the subtype B consensus. No active / inactive call. The values were gathered from many studies (numbered anew) with different assays, which the source does not name. Most viruses are clinical isolates; some are laboratory strains or clones with known resistance changes. Isolates with mixed residues are left out; stretches that were not sequenced show no change. Round top values that many isolates share are read here as limits; other very high values and 0.1 may be limits too. The protease changes I3V and N37S, insertions and deletions cannot be read from the source.

How the values were obtained:
Test in all cases: fold change of IC50 against reference virus; higher = more resistant; Cell-culture drug susceptibility tests of virus bearing the protease of each isolate, gathered from many studies.
ritonavir = compound: CC(C)c1nc(CN(C)C(=O)N[C@H](C(=O)N[C@@H](Cc2ccccc2)C[C@H](O)[C@H](Cc2ccccc2)NC(=O)OCc2cncs2)C(C)C)cs1 [ritonavir]
nelfinavir = compound: Cc1c(O)cccc1C(=O)N[C@@H](CSc1ccccc1)[C@H](O)CN1C[C@H]2CCCC[C@H]2C[C@H]1C(=O)NC(C)(C)C [nelfinavir]
saquinavir = compound: CC(C)(C)NC(=O)[C@@H]1C[C@@H]2CCCC[C@@H]2CN1C[C@@H](O)[C@H](Cc1ccccc1)NC(=O)[C@H](CC(N)=O)NC(=O)c1ccc2ccccc2n1 [saquinavir]
indinavir = compound: CC(C)(C)NC(=O)[C@@H]1CN(Cc2cccnc2)CCN1C[C@@H](O)C[C@@H](Cc1ccccc1)C(=O)N[C@H]1c2ccccc2C[C@H]1O [indinavir]
lopinavir = compound: Cc1cccc(C)c1OCC(=O)N[C@@H](Cc1ccccc1)[C@@H](O)C[C@H](Cc1ccccc1)NC(=O)[C@H](C(C)C)N1CCCNC1=O [lopinavir]

Test System | fold change of IC50 against reference virus (ritonavir) | fold change of IC50 against reference virus (nelfinavir) | fold change of IC50 against reference virus (saquinavir) | fold change of IC50 against reference virus (indinavir) | fold change of IC50 against reference virus (lopinavir)
HIV-1 isolate 1448 (protease changes: T12S K14R I15V L19I M36I R41K L63S H69K V82I L89M I93L, study 114) | 0.3 | 0.3 | 0.4 | 0.2 | 0.3
HIV-1 isolate 634 (protease changes: M46L I54V I62V I64V V82A, study 109) | 12 | 4.1 | 0.5 | 2.7 | 6.3
HIV-1 isolate 335 (protease changes: L10I E35D M36I R41K L63A C67D H69K L89M, study 114) | 0.8 | 0.6 | 0.6 | 0.5 | 0.6
HIV-1 isolate 227 (protease changes: L10F M46I I54V L63P H69K A71V V82A L90M I93L, study 109) | 22 | 18 | 2.7 | 9 | 22
HIV-1 isolate 919 (protease changes: L10M I13V Q18H N37D M46I K55R Q61H L63P A71T I72T V77I N88S L90M I93L, study 8) | 4.5 | 54.7 | 3.4 | 15.7 | 0.7
HIV-1 isolate 1334 (protease changes: T12S I15V L19I M36I R41K H69K L89M I93L, study 114) | 0.7 | 0.7 | 0.7 | 0.9 | 0.7
HIV-1 isolate 1365 (protease changes: N37E I54V D60E I64V V82A, study 7) | 3.4 | 0.5 | 0.4 | 0.6 | 1.2
HIV-1 isolate 364 (protease changes: L10V L33F M46I I54M L63P A71I L90M, study 15) | 24 | 24 | 15 | 13 | 17
HIV-1 isolate 713 (protease changes: L10I K20R M36I M46L I54V Q58E I62V L63P A71V V82A L90M, study 116) | 79 | 43 | 7.1 | 22 | 33
HIV-1 isolate 849 (protease changes: I13V K14R K20I E35D M36I R41K K43R I64M H69K L89M, study 114) | 1.4 | 1.2 | 1 | 0.8 | 1
HIV-1 isolate 1425 (protease changes: L10F M46I I54V L63P H69K A71V V82A L90M I93L, study 109) | 79 | 40 | 7.4 | 29 | 51
HIV-1 isolate 1295 (protease changes: L10F L19R K20M E34K M36I R41K I54V D60E I62V L63P A71V V77I V82S L90M I93L, study 109) | 85 | 20 | 9.4 | 16 | 53
HIV-1 isolate 43 (protease changes: I13V I15V K20I M36I R41K R57K C67S H69K V82I L89M, study 114) | 1.1 | 0.7 | 0.8 | 0.4 | 0.6
HIV-1 isolate 1096 (protease changes: L24I N37E M46I I54V D60E L63P I64V V82A, study 7) | 33.9 | 6.7 | 1.3 | 6.9 | 13.6
HIV-1 isolate 1050 (protease changes: T12S I15V L19I M36V R41K L63P H69K L89M I93L, study 114) | 0.3 | 0.4 | 0.6 | 0.4 | 0.3
HIV-1 isolate 1596 (protease changes: I15V L63P V82L L90M, study 15) | 9 | 2.6 | 1.2 | 1.4 | 1.2
HIV-1 isolate 99 (protease changes: L10I I15V G16E K20R E35D M36I R41K I54V R57K Q61D A71V I72R V82A L89I L90M Q92K, study 8) | 261 | 205 | 52 | 156 | 99
HIV-1 isolate 319 (protease changes: I13V G17E K20I E35D M36I R41K C67M G68W H69K L89M, study 114) | 0.9 | 0.7 | 1 | 0.6 | 0.7
HIV-1 isolate 179 (protease changes: T12S K43R L63P, study 7) | 0.5 | 0.6 | 0.4 | 0.5 | 0.5
HIV-1 isolate 361 (protease changes: T12P L19I E35D I62V L63P K70N I93L, study 15) | 0.6 | 1.1 | 0.5 | 0.8 | 0.6
HIV-1 isolate 1396 (protease changes: I13V K14R I15V K20I E35Q M36I R41K R57K I64M C67E H69K V82I I85M L89M, study 114) | 1.6 | 1.9 | 1.7 | 0.8 | 1.1
HIV-1 isolate 1454 (protease changes: L10I V32I L33M E34Q N37H F53L I54V Q61E L63E I64V E65D A71V V82S L90M, study 65) | 190 | 53.2 | 33.2 | 25.2 | 25.2

Test System | fold change of IC50 against reference virus (ritonavir) | fold change of IC50 against reference virus (nelfinavir) | fold change of IC50 against reference virus (saquinavir) | fold change of IC50 against reference virus (indinavir) | fold change of IC50 against reference virus (lopinavir)
HIV-1 isolate 1503 (protease changes: L10I K20R L24I L33I E35D M36I N37D R41K M46L G48S F53L I54V K55R R57K L63P I64V V82A, study 109) | 214 | 78 | 153 | 18 | 108
HIV-1 isolate 389 (protease changes: K20R L23I N37T L63P T74S V77I V82I I93L, study 145) | 1.7 | 6.7 | 1.3 | 0.9 | 0.8
HIV-1 isolate 778 (protease changes: L10F I84V, study 30) | 4 | 3.4 | 3.7 | 3.2 | 7.7
HIV-1 isolate 1492 (protease changes: L10I I15V G16E K20R E35D M36I R41K I54V R57K Q61N I62V L63H I64M K70R L89M L90M Q92K, study 8) | 5 | 2.3 | 1.8 | 1.8 | 2.8
HIV-1 isolate 25 (protease changes: I13V K14R I15V K20I M36I R41K I64M H69K L89M, study 114) | 0.8 | 1.1 | 0.7 | 0.7 | 0.8
HIV-1 isolate 960 (protease changes: L10F I54L, study 36) | 0.9 | 1.6 | 0.8 | 0.6 | 1
HIV-1 isolate 1267 (protease changes: I13V I15V K20I M36I R41K L63S H69K L89M, study 114) | 1.5 | 1.2 | 1 | 1 | 1.1
HIV-1 isolate 875 (protease changes: L10I I13V K20I E35D M36I R41K H69K V82I L89M, study 114) | 1.7 | 1.8 | 1 | 1.8 | 1
HIV-1 isolate 483 (protease changes: L10I I13V K14R K20R L33F E35D M36I R41K F53L I54V D60E Q61G I62V L63P A71V G73S V82A L90M, study 109) | 261 | 186 | 226 | 55 | 121
HIV-1 isolate 581 (protease changes: I15V M36I R41K L63P E65D K70R, study 109) | 0.7 | 0.8 | 0.6 | 0.6 | 0.6
HIV-1 isolate 474 (protease changes: L10F L33F N37D M46I I54V L63P A71V T74P I84V L90M I93L, study 109) | 63 | 101 | 96 | 29 | 67
HIV-1 isolate 386 (protease changes: L10I G48V I54V L63P A71V I72M V77I V82A L90M I93L, study 109) | 42 | 23 | 143 | 24 | 21
HIV-1 isolate 1471 (protease changes: L10I I15V L24I N37D K45V I54V L63P V82A L89M, study 116) | 108 | 31 | 5.9 | 40 | 41
HIV-1 isolate 362 (protease changes: L10V K20R E35D M36I K43T I54V I62V L63P I64V V82A L90M I93L, study 116) | 77 | 39 | 5.9 | 14 | 18
HIV-1 isolate 974 (protease changes: L10V I13V L19P K20I E35D M36I R41K H69K L89M, study 114) | 1.6 | 1.6 | 1.3 | 0.9 | 1.2
HIV-1 isolate 226 (protease changes: L10I G48V I54V L63P A71V I72M V77I V82A L90M I93L, study 109) | 34 | 27 | 92 | 19 | 16
HIV-1 isolate 671 (protease changes: L63Q, study 15) | 0.6 | 0.8 | 0.6 | 0.6 | 0.5
HIV-1 isolate 1168 (protease changes: L10F L19I E21Q L33F M36L N37D R41I M46I I54V I62V L63P I64V I66L C67F H69R I72M V77I V82T N83D L90M Q92K, study 15) | 400 | 175 | 84 | 178 | 400
HIV-1 isolate 546 (protease changes: L10V L23I M36I M46L I54V I62V L63P A71V V82A I84V L90M I93L, study 145) | 63 | 18 | 41 | 6.1 | 26
HIV-1 isolate 884 (protease changes: T12S I15V L19I M36I R41K L63P H69K L89M I93L, study 114) | 0.4 | 0.6 | 0.5 | 0.5 | 0.4
HIV-1 isolate 242 (protease changes: R41K, study 109) | 0.6 | 0.5 | 0.7 | 0.6 | 0.6
